Where cells or extracts were used, other partners may take part. Negatives hold for the conditions tested.
Test system: NF-kB p50 (p50/p65 heterodimer)
Experiment: EMSA
Settings: TAR alone does not inhibit p50 binding to DNA probe; protein in an extract; variant of TAR-a-p50 (TAR-NF-kB aptamer transcript)

“UCUGGUUAGACCAGAUCUGAGCCUGGGAGCUCUCUGGCUAGCUAGGGAACCCACU [HIV-1 TAR control transcript]”: no binding.

— patent publication US20050250106
